In the experiment the target is TepC (purified protein) (Yersinia pseudotuberculosis). Briefly: ITC; TepC with TipC; conditions in the Supplementary Methods. For orientation: ITC needs no label: the signal is the heat of the interaction.

Drawing on article PMC10833071, “Trojan horselike T6SS effector TepC mediates both interference competition and exploitative competition” (2024), this text covers Kd for one substance.

On to TipC (natural protein), for which the Kd (usually the constant that tells how readily two partners part at equilibrium) came out at 12 nM.
